PubChem BioAssay AID504761 | Drosophila RNAi Screening Center | 2011
The deposit covers about 22,000 reagents; this is an unselected part of those that have a named target and a result. Of all reagents, 116 (0.52%) got an active call. 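Calls depend on retest data that are not deposited; infection was ranked per plate without normalising between plates; the unit of the infection score is not given.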 The raw values are shown without normalisation. Reagent sequences are not shown. Not given: the amount of reagent, the time to read-out.

Screen: 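Fly genes whose silencing reduces dengue virus type 2 infection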 (primary screen)
Cells: D.Mel-2 cells from Drosophila
Reagent: long dsRNA against Drosophila genes
Conditions: infection with dengue virus type 2; dose and infection time not stated
Read-out: 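Per well on two replicate plates, imaging gave the percent of cells positive for viral envelope protein, ranked by infection, and a nuclear count of cells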
Scale: infection score: higher = more virus-infected cells; cell count: higher = more cells in the well
Rule for the call: 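Low infection ranks in the two replicates (chance level up to 0.065) followed by a retest with a 1.5-fold or larger significant decrease, p below 0.05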
Meaning of the calls: active = confirmed: knock-down lowers infection; inactive = not picked or not confirmed

| target | DRSC id | infection score, replicate 1 | infection score, replicate 2 | cell count, replicate 1 | cell count, replicate 2 | Outcome |
| --- | --- | --- | --- | --- | --- | --- |
| Chc (Clathrin heavy chain) | DRSC20229 | 1.5 | 0.5 | 5881 | 5990 | inactive |
| icln | DRSC07630 | 4.5 | 19.1 | 6471 | 5380 | inactive |
| icln | DRSC26232 | 6.33 | 5.02 | 5438 | 6171 | inactive |
| Cyp4e1 (Cytochrome P450 4e1) | DRSC07370 | 16.8 | 4.2 | 6950 | 1859 | inactive |
| Cyp4e1 (Cytochrome P450 4e1) | DRSC27154 | 8.43 | 24.7 | 6740 | 6487 | inactive |
| CG14506 | DRSC14858 | 2.65 | 8.64 | 6870 | 4188 | inactive |
| CG9902 | DRSC20212 | 2.91 | 3.02 | 6591 | 6189 | inactive |
| CG9902 | DRSC24871 | 14.4 | 25.5 | 4049 | 5189 | inactive |
| ND-13A (NADH dehydrogenase (ubiquinone) 13 kDa A subunit) | DRSC03110 | 5.96 | 13.1 | 6733 | 5094 | inactive |
| ND-13A (NADH dehydrogenase (ubiquinone) 13 kDa A subunit) | DRSC29397 | – | 24.4 | 368 | 4849 | inactive |
| CG18480 | DRSC01957 | 7.35 | 7.04 | 6365 | 6306 | inactive |
| CG18480 | DRSC24949 | 5.86 | 11.9 | 6487 | 6026 | inactive |
| ERR (estrogen-related receptor) | DRSC10840 | 8.26 | 6.49 | 5800 | 6067 | inactive |
| Pisd (Phosphatidylserine decarboxylase) | DRSC15935 | 4.05 | 6.74 | 6371 | 6111 | inactive |
| alphaSnap (alpha Soluble NSF attachment protein) | DRSC11285 | 7.46 | 1.73 | 496 | 520 | inactive |
| alphaSnap (alpha Soluble NSF attachment protein) | DRSC29788 | 9.5 | 10.3 | 1453 | 2122 | inactive |
| CG8813 | DRSC00706 | 7.22 | 4.89 | 6484 | 6752 | inactive |
| Lgr1 (Leucine-rich repeat-containing G protein-coupled receptor 1) | DRSC16675 | 5.28 | 8.01 | 5763 | 5518 | inactive |
| Jon99Ciii (Jonah 99Ciii) | DRSC16859 | 5.72 | 7.53 | 4612 | 930 | inactive |
| CG17167 | DRSC20902 | 9.64 | 3.55 | 5914 | 5889 | inactive |
| CG17167 | DRSC20903 | 3.41 | 1.38 | 6079 | 6073 | inactive |
| Tsp42Ea (Tetraspanin 42Ea) | DRSC04982 | 13.6 | 4.87 | 5326 | 2219 | inactive |
| Tsp42Ea (Tetraspanin 42Ea) | DRSC06792 | 10.5 | 19.8 | 1548 | 4560 | inactive |
| CG7650 | DRSC10898 | 0.84 | 1.35 | 5816 | 6465 | inactive |
| CG7650 | DRSC29711 | 5.53 | 2.4 | 5899 | 5826 | inactive |
| Eip75B (Ecdysone-induced protein 75B) | DRSC23047 | 1.29 | 2.51 | 6440 | 6760 | inactive |
| ZnT41F (Zinc transporter 41F) | DRSC04850 | 13.3 | 22.4 | 6395 | 6122 | inactive |
| CG31075 | DRSC16016 | 7.25 | 2.23 | 4553 | 6505 | inactive |
| Pkn (Protein kinase N) | DRSC06810 | 12.7 | 4.83 | 4787 | 6916 | inactive |
| Pkn (Protein kinase N) | DRSC25936 | 2.69 | 4.09 | 5996 | 6062 | inactive |
| CG2616 | DRSC15440 | 6.98 | 16.9 | 6220 | 5715 | inactive |
| CG2616 | DRSC24316 | 3.68 | 5.02 | 6175 | 6121 | inactive |
| psidin (phagocyte signaling impaired) | DRSC15660 | 2.95 | 0.88 | 6604 | 6247 | inactive |
| tamo | DRSC04446 | 15.6 | 25.2 | 6306 | 5670 | inactive |
| tamo | DRSC24895 | 2.24 | 0.95 | 6600 | 6523 | inactive |
| mex1 (midgut expression 1) | DRSC11368 | 2.89 | 8.06 | 6097 | 6253 | inactive |
| CG7766 | DRSC18424 | 0.45 | 12.5 | 6710 | 6711 | inactive |
| Cp7Fb (Chorion protein b at 7F) | DRSC18034 | 2.55 | 1.13 | 6386 | 6633 | inactive |
| CG3348 | DRSC15480 | 7.23 | 0.9 | 1134 | 6668 | inactive |
| CG31928 | DRSC00293 | 2.73 | 3.82 | 6956 | 5988 | inactive |
| ppl (pumpless) | DRSC11899 | 3.76 | 6.84 | 6224 | 5834 | inactive |
| ppl (pumpless) | DRSC27839 | 24.1 | 10.4 | 4408 | 6683 | inactive |
| nub (nubbin) | DRSC02498 | 0.55 | 1.59 | 6309 | 6103 | inactive |
| nub (nubbin) | DRSC03583 | 13.5 | 1.73 | 4447 | 5825 | inactive |
| nub (nubbin) | DRSC23066 | 0.77 | 2.89 | 6396 | 6306 | inactive |
| nub (nubbin) | DRSC25610 | 3.71 | 4.7 | 6356 | 6024 | inactive |
| nub (nubbin) | DRSC27113 | 39 | 9.97 | 5449 | 1444 | inactive |
| nub (nubbin) | DRSC28839 | 0.44 | – | 456 | 274 | inactive |
| CG31697 | DRSC22273 | 3.08 | 9.44 | 6101 | 6144 | inactive |
| CG13315 | DRSC09986 | 2.06 | 7.09 | 5716 | 5949 | inactive |
| RpL26 (Ribosomal protein L26) | DRSC10726 | 3.16 | 2.07 | 1520 | 1446 | inactive |
| CG1750 | DRSC15240 | 2.83 | 1.51 | 5696 | 6364 | inactive |
| Hrd3 (HMG-coA reductase degradation 3) | DRSC14156 | 2.53 | 4.64 | 6165 | 6254 | inactive |
| CG5290 | DRSC10501 | 14 | 5.81 | 3346 | 6282 | inactive |
| CG5290 | DRSC30041 | 19.4 | 9.42 | 6235 | 6529 | inactive |
| Bicra | DRSC14417 | 4.88 | 1.28 | 6859 | 627 | inactive |
| Bicra | DRSC25127 | 0.83 | 1.65 | 6717 | 6499 | inactive |
| Cpr65Ec (Cuticular protein 65Ec) | DRSC11025 | 4.58 | 2.42 | 6640 | 5586 | inactive |
| Cpr65Ec (Cuticular protein 65Ec) | DRSC24191 | 21.4 | 8.58 | 5853 | 6117 | inactive |
